Pooled drug test results. Numbers come from NIAID ChemDB, via PubChem.

All rows: host cell toxicity; cell line: MT-4; read by: MTT; endpoint: CC50

CCn is the concentration with n% toxicity to the cells. Rows are shuffled and stem from different studies.

N#CSc1ccc2nc(NC(=O)CN3C(=O)S/C(=C/c4ccccc4Cl)C3=O)sc2c1 ; result: 73 µM
Cc1cc(C#N)cc(C)c1Oc1nc(Nc2ccc(C#N)cc2)ncc1C#CC(=O)NC1CC1 ; result: 5.3 µM
O=C1/C(=C/c2cc(O)c(O)c(O)c2)CC/C1=C\c1cc(O)c(O)c(O)c1 ; result: 180 µM
Cc1cc(/C=C/C#N)cc(C)c1Nc1ccnc(Nc2ccc(C#N)cc2)n1 ; result: 4.38 µM
CN1CC(=O)C(=O)C=C1Cn1cnc([N+](=O)[O-])c1Nc1ccccc1 ; result: >250 µM
COc1cc2nc(S(=O)CC(=O)Nc3ccc([N+](=O)[O-])cc3)nc(Nc3c(Cl)cc(/C=C/C#N)cc3Cl)c2cc1OC ; result: >92.8 µM
COc1ccc(NC(=O)C2=C(C)NC(=O)C3C(N)=NN=C23)cc1 ; result: 88.8 µg/mL
O=C(/C=C/c1ccc(Cl)c(Cl)c1)/C=C/c1ccc(Cl)c(Cl)c1 ; result: >200 µM
CN1CC(=O)C(=O)C=C1Cn1cnc([N+](=O)[O-])c1Nc1ccc(Cl)cc1 ; result: >250 µM
CC1=C(C)[C@]2(C)C(C)[C@@]1(C)[C@@H]1C(=O)N(NC(=S)NC3CCCCC3)C(=O)[C@@H]12 ; result: 48 µM
Cc1cc(C#N)cc(C)c1Oc1nc(Nc2ccc(C#N)cc2)ncc1SCC(=O)NCCCN1CCOCC1 ; result: 23.6 µM
N#CSc1ccc2nc(NC(=O)CN3C(=O)S/C(=C/c4ccc(F)cc4)C3=O)sc2c1 ; result: >100 µM
Cc1cn([C@H]2C[C@H](N=[N+]=[N-])[C@@H](CO)O2)c(=O)[nH]c1=O ; result: 7.8 µg/mL
Cc1cc(C#N)cc(C)c1Oc1nc(Nc2ccc(C#N)cc2)ncc1C#CC(=O)NCCOCCO ; result: 9.38 µM
CC1=C[C@@H]2[C@@H]3C(=O)N(NC(=O)Nc4ccccc4)C(=O)[C@@H]3[C@H]1C[C@@H]2C(C)C ; result: >100 µM
N#CSc1ccc2nc(NC(=O)CCl)sc2c1 ; result: 8 µM
COc1ccc(NC(=S)NN2C(=O)[C@@H]3[C@H](C2=O)[C@]2(C)C(C)=C(C)[C@@]3(C)C2C)cc1 ; result: 55 µM
COc1cc2nc(S(=O)CC(=O)Nc3ccc(C#N)cc3)nc(Nc3c(Cl)cc(/C=C/C#N)cc3Cl)c2cc1OC ; result: >188 µM
O=C1/C(=C/c2cc(O)c(O)c(O)c2)CSC/C1=C\c1cc(O)c(O)c(O)c1 ; result: 100 µM
COc1ccc(Cl)cc1NC(=O)C1=C(C)NC(=O)C2C(N)=NN=C12 ; result: 73.1 µg/mL
CC(C)[C@]12C=C[C@](C)(CC1)[C@H]1C(=O)N(N)C(=O)[C@H]12 ; result: 100 µM
COc1cc2nc(S(=O)CC(=O)Nc3cc([N+](=O)[O-])ccc3F)nc(Nc3c(Cl)cc(/C=C/C#N)cc3Cl)c2cc1OC ; result: >194 µM
O=C1/C(=C/c2cc(O)c(O)c(O)c2)CNC/C1=C\c1cc(O)c(O)c(O)c1 ; result: 35 µM
N#CSc1ccc2nc(NC(=O)CN3C(=O)S/C(=C/c4cccc(Br)c4)C3=O)sc2c1 ; result: 73 µM
Cc1ccc(Sc2c([N+](=O)[O-])ncn2CC2=CC(=O)C(=O)CN2C)cc1 ; result: 29.8 µM
O=C1/C(=C/c2ccc(O)c(O)c2)CN(Cc2ccccc2)C/C1=C\c1ccc(O)c(O)c1 ; result: 4.7 µM
C#CCOC(=O)c1cccn1S(=O)(=O)c1cc(Cl)ccc1N ; result: 118 µM
C#CCNC(=O)C#Cc1cnc(Nc2ccc(C#N)cc2)nc1Oc1c(C)cc(C#N)cc1C ; result: 7.02 µM
Nc1ccc(Cl)cc1S(=O)(=O)n1cccc1C(=O)OC1CCCC1 ; result: 53.6 µM
O=C1/C(=C/c2ccc(Cl)c(Cl)c2)CSC/C1=C\c1ccc(Cl)c(Cl)c1 ; result: 31 µM
CCOC(=O)C#Cc1cnc(Nc2ccc(C#N)cc2)nc1Oc1c(C)cc(C#N)cc1C ; result: 34.5 µM
NC(=O)c1cccn1S(=O)(=O)c1cc(Cl)ccc1N ; result: 200 µM
COc1ccccc1NC(=O)CS(=O)c1nc(Nc2c(Cl)cc(/C=C/C#N)cc2Cl)c2cc(OC)c(OC)cc2n1 ; result: >204 µM
Nc1ccc(Cl)cc1S(=O)(=O)n1cccc1C(=O)OC1CCCCC1 ; result: >200 µM
CC1=C[C@@H]2[C@@H]3C(=O)N(NC(=O)NC4CCCCC4)C(=O)[C@@H]3[C@H]1C[C@@H]2C(C)C ; result: 63 µM
CC1=C(C(=O)Nc2cccc([N+](=O)[O-])c2)C2=NN=C(N)C2C(=O)N1 ; result: ≥101 µg/mL
COc1cc2nc(S(=O)CC(=O)Nc3ccc(C(F)(F)F)cc3)nc(Nc3c(Cl)cc(/C=C/C#N)cc3Cl)c2cc1OC ; result: 22 µM
COc1ccc(NC(=O)NN2C(=O)[C@H]3[C@H]4C=C(C)[C@H](C[C@@H]4C(C)C)[C@H]3C2=O)cc1 ; result: 46 µM

The last 5 rows once more:

SMILES	result
Nc1ccc(Cl)cc1S(=O)(=O)n1cccc1C(=O)OC1CCCCC1	>200 µM
CC1=C[C@@H]2[C@@H]3C(=O)N(NC(=O)NC4CCCCC4)C(=O)[C@@H]3[C@H]1C[C@@H]2C(C)C	63 µM
CC1=C(C(=O)Nc2cccc([N+](=O)[O-])c2)C2=NN=C(N)C2C(=O)N1	≥101 µg/mL
COc1cc2nc(S(=O)CC(=O)Nc3ccc(C(F)(F)F)cc3)nc(Nc3c(Cl)cc(/C=C/C#N)cc3Cl)c2cc1OC	22 µM
COc1ccc(NC(=O)NN2C(=O)[C@H]3[C@H]4C=C(C)[C@H](C[C@@H]4C(C)C)[C@H]3C2=O)cc1	46 µM